A mixed list of measured activities; the numbers were collected in NIAID ChemDB.

Common to all: tests in culture; species: HIV-1; cells: CEM; method: syncytia; read-out: fold resistance

Fold resistance has wild type as its base.

compound,strain,mutations,result
CC1=C(C(=O)Nc2ccc(Cl)c(C(=O)OC(C)C)c2)SCCO1,IIIB,RT-Y188H,66.7
CO/N=C/c1cc(NC(=S)c2ccoc2C)ccc1OC,,RT-K103N,170
CC(C)OC(=O)c1cc(NC(=S)OC(C)C)ccc1Cl,IIIB,RT-V106A,71
Cc1occc1C(=O)Nc1ccc(Cl)c(SCC=C(Cl)Cl)c1,HEPT-resistant (RT Y188H),RT-Y188H,21.5
CCCC1=C(C(=O)Nc2ccc(Cl)c(C(=O)OC)c2)SCCO1,TSAO-resistant (RT E138K),RT-E138K,>13.3
C=C(Cl)COc1cc(NC(=S)c2ccoc2C)ccc1C,TIBO R82913-resistant (RT K103N),RT-K103N,8.33
CCC(CC)OC(=O)c1cc(NC(=S)c2ccoc2C)ccc1Cl,,RT-E138K,4.01
COc1ccc(NC(=S)c2ccoc2C)cc1OCC=C(Cl)Cl,TIBO R82913-resistant (RT K103N),RT-K103N,133
CCOCn1c(Cc2cc(C)cc(C)c2)c(CC)c(=O)[nH]c1=O,IIIB,RT-E138K,9
CC(C)OC(=O)c1cc(NC(=S)c2ccsc2)ccc1Cl,,RT-L100I,10
CC1=C(C(=O)Nc2ccc(Cl)c(C(=O)OC(C)C)c2)SCCO1,IIIB,RT-E138K,>1500
Cn1cccc1C(=S)Nc1ccc(Cl)c(/C=N/OC(C)(C)C)c1,,RT-Y181C,1.56
CCc1c(Sc2cc(C)cc(C)c2)n(COCc2ccccc2)c(=S)[nH]c1=O,IIIB,RT-Y188H,162
COc1ccc(NC(=S)c2ccsc2C)cc1OCC=C(Cl)Cl,TIBO R82150-resistant (RT L100I),RT-L100I,18
CCOCn1c(Sc2ccccc2)c(C(C)C)c(=O)[nH]c1=S,IIIB,RT-Y181C,98.9
Cc1occc1C(=S)Nc1ccc(Cl)c(/C=N/OC(C)(C)C)c1,IIIB,RT-V106A,2.6
C/C=C/COc1cc(NC(=S)c2ccoc2C)ccc1Cl,,RT-Y181C,29
CC(C)c1c(Sc2ccccc2)n(COCCO)c(=S)[nH]c1=O,IIIB (TIBO 82150) (RT-L100I),RT-L100I,5
Cc1sccc1C(=S)Nc1ccc(Cl)c(OCCC(C)C)c1,,RT-K103N,13.1
CC1=C(C(=O)Nc2ccc(C)c(C(=O)OC(C)C)c2)SCCO1,PYR-resistant (RT Y181C),RT-Y181C,13.3
C/C(Cl)=C/COc1cc(NC(=O)c2ccoc2C)ccc1Cl,Nevirapine-resistant isolate (RT V106A),RT-V106A,3.33
COc1ccc(C)cc1CS(=O)(=O)c1cccc[n+]1[O-],IIIB,RT-L100I,6.78
CC(C)=CCOc1cc(NC(=S)c2ccoc2C)ccc1Cl,IIIB,RT-Y188L,16.7
C#CCO/N=C/c1cc(NC(=S)c2ccoc2C)ccc1Cl,,RT-V106A,13.3
O=C(Nc1ccc(Cl)c(C(=O)OC2CCCCC2)c1)c1ccccc1F,IIIB,RT-L100I,16.7
COc1ccc(NC(=O)c2ccoc2C)cc1OCC=C(Cl)Cl,Nevirapine-resistant isolate (RT V106A),RT-V106A,8
Cc1ccc(C)c(CS(=O)c2ccc(Cl)c[n+]2[O-])c1,IIIB,RT-E138K,4.75
Cc1sccc1C(=S)Nc1ccc(Cl)c(C(=O)OC2CCCCC2)c1,,RT-L100I,12.1
Cc1sccc1C(=S)Nc1ccc(Cl)c(OCC=C(Cl)Cl)c1,TIBO R82913-resistant (RT K103N),RT-K103N,57.1
Cc1ccsc1C(=O)Nc1ccc(Cl)c(/C=N/OC(C)(C)C)c1,,RT-V106A,6.99
Cc1sccc1C(=O)Nc1ccc(Cl)c(OCC=C(Cl)Cl)c1,Pyridone-resistant (RT Y181C),RT-Y181C,27.8
CC(C)OC(=O)c1cc(NC(=S)c2cccs2)ccc1Cl,,RT-Y181C,27
Cc1occc1C(=O)Nc1ccc(Cl)c(/C=N/N(C)C)c1,R82150-resistant (RT L100I),RT-L100I,<8.89
Cc1occc1C(=S)Nc1ccc(Cl)c(OC(=O)OC(C)C)c1,,RT-V106A,8.18
COC(=O)Oc1ccc(NC(=O)C2=C(C)OCCS2)cc1C(=O)OC(C)C,TIBO-resistant (RT L100I),RT-L100I,>14.3
C=C(Cl)COc1cc(NC(=S)c2ccsc2C)ccc1C#N,Pyridone-resistant (RT Y181C),RT-Y181C,14.7
Cc1occc1C(=S)Nc1ccc(Cl)c(C(=O)OC(C)C)c1,,RT-E138K,85
O=S(=O)(Cc1ccccc1I)c1cccc[n+]1[O-],IIIB,RT-K103N,1.125
CC(C)=CCOc1cc(NC(=S)c2ccoc2C)ccc1Cl,,RT-K103N,7.7
CC1=C(C(=O)Nc2ccc(Cl)c(C(=O)OCC3CCC3)c2)SCCO1,Nevirapine-resistant (RT V106A),RT-V106A,47.1
CCc1c(Cc2cc(C)cc(C)c2)n(COCCO)c(=O)[nH]c1=O,IIIB,RT-E138K,7.14
O=C(Nc1ccc(Cl)c(C(=O)OC2CCCCC2)c1)c1ccccc1F,,RT-Y181C,8.125

A second listing of 4 rows from above:

COc1ccc(NC(=O)c2ccoc2C)cc1OCC=C(Cl)Cl ; strain: Nevirapine-resistant isolate (RT V106A) ; mutations: RT-V106A ; result: 8
Cc1sccc1C(=S)Nc1ccc(Cl)c(OCC=C(Cl)Cl)c1 ; strain: TIBO R82913-resistant (RT K103N) ; mutations: RT-K103N ; result: 57.1
O=C(Nc1ccc(Cl)c(C(=O)OC2CCCCC2)c1)c1ccccc1F ; strain: IIIB ; mutations: RT-L100I ; result: 16.7
Cc1sccc1C(=S)Nc1ccc(Cl)c(C(=O)OC2CCCCC2)c1 ; mutations: RT-L100I ; result: 12.1

Conditions beyond the fields shown may differ between rows. Blank or dashed fields: not listed here.